Measured values from several laboratories, pooled; numbers as filed in NIAID ChemDB.

All rows: tests in culture; organism: HIV-1; read by: cytopathic effect / XTT; endpoint: EC50

Neighbouring rows are from separate reports. An empty or dashed field is not shown. ECn is the concentration giving n% inhibition of infection, replication or growth.

smiles	changes	strain or isolate	cell line	result
NC(=O)C(c1ccccc1)(c1ccccc1)C1CCCN(CCCOCc2ccccc2)C1		NL4-3	MT-2	3.9 µM
Cc1cn([C@H]2C=C[C@@H](OCP(=O)(O)O)O2)c(=O)[nH]c1=O		IIIB	MT-2	26 µM
Cc1cc(SC2=C(O)CC(CCc3ccccc3)(c3ccccc3)OC2=O)c(C(C)(C)C)cc1CO		RF	CEM + CEM-SS	0.5 µM
NC(=O)C(c1ccccc1)(c1ccccc1)[C@H]1CCCN(CCc2ccc3c(c2)CCO3)C1		NL4-3	MT-2	0.78 µM
O=C1N(Cc2ccc(CO)cc2)[C@H](Cc2ccccc2)[C@H](O)[C@@H](O)[C@@H](Cc2ccccc2)N1Cc1ccc(CO)cc1		IIIB	MT-4	0.12 µM
CN1CC2=C(NC(=S)NC2c2cccs2)/C(=C/c2cccs2)C1		RF	CEM + CEM-SS	>34 µM
Cc1cn([C@H]2C[C@H](N=[N+]=[N-])[C@@H](CO)O2)c(=O)[nH]c1=O		RF	CEM + CEM-SS	0.004 µM
Nc1nc(=O)n([C@@H]2CS[C@H](CO)O2)cc1F	RT-K65R Y115F	Site-directed mutant	MT-2	19.6 µM
C=C1C=C(OC)C(C)(C2=NC(C)(C)CO2)c2ccccc21		RF	CEM + CEM-SS	140 µM
Nc1c(Br)cc2c([nH]c(=O)c3cc(Br)ccc32)c1Br		RF	CEM + CEM-SS	>39 µM
CN1CC2=C(OC(N)=C(C#N)C2c2cccs2)/C(=C/c2cccs2)C1		RF	CEM + CEM-SS	>9 µM
O=C(NC(=O)c1cn(CCN2CCNCC2)c(=O)[nH]c1=O)OCc1ccccc1		RF	CEM + CEM-SS	>40 µM
CNC(=O)C(c1ccccc1)(c1ccccc1)[C@H]1CCCN(CCc2ccc3c(c2)CCO3)C1		NL4-3	MT-2	5.9 µM
Cc1cn([C@H]2C[C@H](N=[N+]=[N-])[C@@H](CO)O2)c(=O)[nH]c1=O	RT-K65R M184V	Site-directed mutant	MT-2	0.056 µM
Cc1ccnc2c1N(CN1CCN(c3ccc([N+](=O)[O-])cc3)CC1)C(=O)c1cccnc1N2C1CC1			CEM	0.12 µM
Cc1cn([C@H]2C[C@H](N=[N+]=[N-])[C@@H](CO)O2)c(=O)[nH]c1=O		MN	CEM + CEM-SS	0.0005 µM
Nc1ccn([C@H]2CC[C@@H](CO)O2)c(=O)n1		IIIB	MT-2	1.4 µM
COc1cc(/C=C2/C(=O)N(C(=O)c3ccc(Cl)cc3)N=C2C)cc(OC)c1OC			CEM	>14 µM
CC1=CC(=O)C(C)(C2=NC(C)(C)CO2)c2ccccc21	RT-Y181C	RF	CEM + CEM-SS	>1000 µM
C[C@H](Cn1cnc2c(N)ncnc21)OCP(=O)(O)O		HXB2D	MT-2	0.003 µM
CN1C/C(=C\c2cccs2)C2=NN(c3ccccc3)C(c3cccs3)C2C1		RF	CEM + CEM-SS	>9.1 µM
CC(C)C[C@H](NC(=O)[C@@H](N)[C@@H](C)O)C(=O)N[C@@H](CC(N)=O)C(=O)N[C@@H](Cc1ccccc1)B(O)O		RF	CEM + CEM-SS	>102 µM
Cc1ccnc2c1N(CN1CCN(Cc3ccccc3)CC1)C(=O)c1cccnc1N2C1CC1			CEM	0.523 µM
Cc1cn([C@H]2C=C[C@@H](CO)O2)c(=O)[nH]c1=O		HXB2D	MT-2	0.008 µM
CN1C/C(=C\c2cccs2)C(O)/C(=C/c2cccs2)C1		RF	CEM + CEM-SS	>126 µM
Cc1ccnc2c1NC(=O)c1cccnc1N2C1CC1			CEM	0.09 µM
Cc1cn([C@H]2C[C@H](N=[N+]=[N-])[C@@H](CO)O2)c(=O)[nH]c1=O	TIBO-resistant (RT Y181C)	RF	CEM + CEM-SS	0.04 µM
COc1ccc(NC(=O)C/C(C)=N/N=C(N)N)c([N+](=O)[O-])c1		RF	CEM + CEM-SS	>100 µM
Cc1ccc(/C=C2\CN(C)CC3=C2OC(N)=C(C#N)C3c2ccc(C)cc2)cc1		RF	CEM + CEM-SS	>11.1 µM
Cc1cn([C@H]2C=C[C@@H](CO)O2)c(=O)[nH]c1=O		IIIB	MT-2	8 µM
Cc1ccnc2c1N(CN1CCN(c3ccc(F)cc3)CC1)C(=O)c1cccnc1N2C1CC1			CEM	0.0318 µM
CC(=O)C(N=Nc1ccc(S(=O)(=O)Nc2ccccn2)cc1)C(=O)Nc1ccccc1C		RF	CEM + CEM-SS	>4.5 µM
Cc1cn([C@H]2C[C@H](N=[N+]=[N-])[C@@H](CO)O2)c(=O)[nH]c1=O		IIIB	MT-2	0.17 µM
Cc1ccnc2c1N(CN1CCN(c3ccccc3)CC1)C(=O)c1cccnc1N2C1CC1			CEM	0.0636 µM
COc1cc2c(cc1C)C(C)=CC(=O)C2(C)C1=NC(C)(C)CO1		RF	CEM + CEM-SS	20 µM
Nc1nc2c(ncn2[C@H]2CO[C@@H](CO)O2)c(=O)[nH]1		HXB2D	MT-2	0.0019 µM
Cc1cn([C@H]2C[C@H](N=[N+]=[N-])[C@@H](CO)O2)c(=O)[nH]c1=O		IIIB	CEMx174 + CEM	0.03 µM
Cc1cn([C@H]2CC[C@@H](CO)O2)c(=O)[nH]c1=O		IIIB	MT-2	>200 µM
CN(C)[C@@H]1C(=O)C(C(N)=O)=C(O)[C@@]2(O)C(=O)C3=C(O)c4c(O)cccc4[C@@](C)(O)[C@H]3[C@H](O)[C@@H]12		RF	CEM + CEM-SS	>64 µM
CN1C/C(=C\c2cccs2)C(=O)/C(=C/c2cccs2)C1		RF	CEM + CEM-SS	>15.2 µM